The source of these data is doi:10.1101/2020.01.05.895227.

Amino acid sequences for entries named in this document (tags omitted). A change or cut given only in a name is not applied to a line headed by its entry.
UniProt J9VI03: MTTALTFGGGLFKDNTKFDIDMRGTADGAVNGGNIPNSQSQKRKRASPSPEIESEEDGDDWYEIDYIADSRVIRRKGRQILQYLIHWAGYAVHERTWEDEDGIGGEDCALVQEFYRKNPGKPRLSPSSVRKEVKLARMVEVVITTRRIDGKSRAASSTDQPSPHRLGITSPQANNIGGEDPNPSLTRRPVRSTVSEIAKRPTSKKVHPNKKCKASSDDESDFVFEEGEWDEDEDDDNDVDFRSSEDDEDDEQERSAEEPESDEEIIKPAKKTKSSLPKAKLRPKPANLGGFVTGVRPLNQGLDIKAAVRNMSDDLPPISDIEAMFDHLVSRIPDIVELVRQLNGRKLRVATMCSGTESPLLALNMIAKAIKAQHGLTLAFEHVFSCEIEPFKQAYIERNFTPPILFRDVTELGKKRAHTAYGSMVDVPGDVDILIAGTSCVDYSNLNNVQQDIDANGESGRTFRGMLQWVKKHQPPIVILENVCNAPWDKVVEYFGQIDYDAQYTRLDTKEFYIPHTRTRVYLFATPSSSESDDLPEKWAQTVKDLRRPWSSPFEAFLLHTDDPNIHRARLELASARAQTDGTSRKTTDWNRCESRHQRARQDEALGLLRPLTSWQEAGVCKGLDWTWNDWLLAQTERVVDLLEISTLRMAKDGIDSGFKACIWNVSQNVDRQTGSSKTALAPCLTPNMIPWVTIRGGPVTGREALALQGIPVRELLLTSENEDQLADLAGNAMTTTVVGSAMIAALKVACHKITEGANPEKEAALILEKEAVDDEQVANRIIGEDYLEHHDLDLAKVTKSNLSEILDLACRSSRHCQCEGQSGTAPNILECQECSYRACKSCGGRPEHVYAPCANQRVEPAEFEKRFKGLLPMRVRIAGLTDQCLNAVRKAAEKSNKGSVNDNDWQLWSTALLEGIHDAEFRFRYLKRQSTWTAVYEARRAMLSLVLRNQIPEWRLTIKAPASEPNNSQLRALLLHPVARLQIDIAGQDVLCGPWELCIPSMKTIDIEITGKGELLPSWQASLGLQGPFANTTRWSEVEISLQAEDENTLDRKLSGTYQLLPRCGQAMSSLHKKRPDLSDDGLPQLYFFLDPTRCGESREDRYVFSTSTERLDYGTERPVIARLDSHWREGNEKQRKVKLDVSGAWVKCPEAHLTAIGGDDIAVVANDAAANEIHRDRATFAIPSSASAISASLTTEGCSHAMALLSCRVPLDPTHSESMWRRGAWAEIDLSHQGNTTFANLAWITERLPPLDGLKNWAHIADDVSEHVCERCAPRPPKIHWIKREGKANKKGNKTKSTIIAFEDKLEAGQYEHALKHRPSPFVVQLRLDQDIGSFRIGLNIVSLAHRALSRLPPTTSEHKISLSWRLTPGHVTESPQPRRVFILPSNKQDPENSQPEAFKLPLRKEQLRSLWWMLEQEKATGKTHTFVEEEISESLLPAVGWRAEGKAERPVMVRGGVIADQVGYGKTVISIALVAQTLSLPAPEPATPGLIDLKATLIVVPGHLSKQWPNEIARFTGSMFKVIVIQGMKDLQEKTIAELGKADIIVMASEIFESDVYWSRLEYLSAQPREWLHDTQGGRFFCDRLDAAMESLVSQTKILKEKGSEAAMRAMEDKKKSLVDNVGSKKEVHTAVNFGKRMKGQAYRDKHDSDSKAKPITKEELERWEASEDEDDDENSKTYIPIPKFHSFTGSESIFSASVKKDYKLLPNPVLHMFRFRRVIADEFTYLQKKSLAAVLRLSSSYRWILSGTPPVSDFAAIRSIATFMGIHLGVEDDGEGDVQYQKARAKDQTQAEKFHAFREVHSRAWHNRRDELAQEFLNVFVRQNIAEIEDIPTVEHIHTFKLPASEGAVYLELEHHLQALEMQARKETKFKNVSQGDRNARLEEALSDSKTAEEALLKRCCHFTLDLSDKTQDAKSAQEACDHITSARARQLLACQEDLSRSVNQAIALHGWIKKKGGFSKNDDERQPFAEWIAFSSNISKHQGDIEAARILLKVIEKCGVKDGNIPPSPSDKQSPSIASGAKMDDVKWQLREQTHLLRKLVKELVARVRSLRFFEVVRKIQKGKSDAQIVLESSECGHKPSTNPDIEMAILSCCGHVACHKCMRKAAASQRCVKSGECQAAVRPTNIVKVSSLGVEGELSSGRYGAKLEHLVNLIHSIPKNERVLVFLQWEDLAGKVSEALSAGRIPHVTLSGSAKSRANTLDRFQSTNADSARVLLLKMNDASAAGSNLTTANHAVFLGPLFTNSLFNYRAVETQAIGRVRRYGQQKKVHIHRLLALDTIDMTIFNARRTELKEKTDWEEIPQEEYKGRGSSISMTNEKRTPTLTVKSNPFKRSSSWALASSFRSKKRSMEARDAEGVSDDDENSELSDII

The exact form of at least one protein or probe is not confirmed. For some assays here: The comparison behind a weaker result is the experiment's own reference, which may not be listed here. For some assays here: At least one verdict was read from the data and is not stated in words by the source. Some results are limits rather than exact numbers.

Data set [1] addresses Dnmt5 full-length (Cryptococcus neoformans) (UniProt J9VI03). The data set can be described thus: EMSA. As to conditions: 1 mM MgCl2, 5mC at strand 1 positions 13, 34, 47, residues 1-2377.
The target is the same in data set [2]. Put plainly: competition with a labelled probe. To be noted: 1 uM competitor, 67 nM protein, 1 nM labeled unmethylated DNA; residues 1-2377.

As a reminder, the Kd is the free concentration of one partner at which half of the binding sites on the other are occupied at equilibrium, for simple one-to-one binding. Read a low Kd as tighter binding.

On to “CATGGCCTAAGCCGGACTGAATGAGCAAGCTTCCGGAGAATTCTGCCGGACTGCAGATGC (double strand) [Hemimethylated 60 bp DNA (3 CG), Cy5]”, for which the binding result in data set [1] (1 mM ADP), in data set [1] (1 mM AMP-PCP) and in data set [1] (1 mM ATP) was “binds more weakly” in each case. Moreover, in data set [1] (1 mM AMP-PNP), the Kd is > 100 nM.

Regarding “CATGGCCTAAGCCGGACTGAATGAGCAAGCTTCCGGAGAATTCTGCCGGACTGCAGATGC (double strand) [Unlabeled unmethylated competitor DNA]”, the binding result in data set [2] is on record as “binds”.
